{"source": "PubChem BioAssay AID504761 (Drosophila RNAi Screening Center, 2011)", "aim": "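Genome-wide fly cell screen for genes dengue virus requires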 (primary screen)", "system": "D.Mel-2 cells from Drosophila", "reagents": "long dsRNA against Drosophila genes", "conditions": "infection with dengue virus type 2; dose and infection time not stated", "measurement": "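Per well on two replicate plates, imaging gave the percent of cells positive for viral envelope protein, ranked by infection, and a nuclear count of cells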", "direction": "infection score: higher = more virus-infected cells; cell count: higher = more cells in the well", "rule for the call": "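Very low infection ranking in both replicate wells (chance probability at most 0.065), then a retest showing infection dropped 1.5-fold or more at p below 0.05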", "meaning of the calls": "active = confirmed: knock-down lowers infection; inactive = not picked or not confirmed", "note": "The deposit covers about 22,000 reagents; this is an unselected part of those that have a named target and a result. Over the whole deposit, 116 (0.52%) were called active. 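Calls depend on retest data that are not deposited; infection was ranked per plate without normalising between plates; the unit of the infection score is not given.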 Raw values vary from plate to plate and are shown uncorrected. Unmarked entries are inactive. Not all columns of the deposit are shown. Not stated in the record: the amount of reagent, the time to read-out."}
{"gene knocked down": "wisp", "PubChem SID": "SID104202449", "infection score, replicate 1": 2.07, "cell count, replicate 1": 5749}
{"gene knocked down": "wisp", "PubChem SID": "SID104204461", "infection score, replicate 1": 1.19, "cell count, replicate 1": 6402}
{"gene knocked down": "CG32086", "PubChem SID": "SID104190378", "infection score, replicate 1": 2.19, "cell count, replicate 1": 5710}
{"gene knocked down": "Mtl", "PubChem SID": "SID104196543", "infection score, replicate 1": 3.3, "cell count, replicate 1": 6998}
{"gene knocked down": "nmd", "PubChem SID": "SID104182648", "infection score, replicate 1": 2.07, "cell count, replicate 1": 7013}
{"gene knocked down": "nmd", "PubChem SID": "SID104206529", "infection score, replicate 1": 3.2, "cell count, replicate 1": 6664}
{"gene knocked down": "ppk26", "PubChem SID": "SID104190783", "infection score, replicate 1": 2.24, "cell count, replicate 1": 6342}
{"gene knocked down": "ppk26", "PubChem SID": "SID104204420", "infection score, replicate 1": 2.71, "cell count, replicate 1": 6129}
{"gene knocked down": "CG17944", "PubChem SID": "SID104192364", "infection score, replicate 1": 7, "cell count, replicate 1": 6400}
{"gene knocked down": "mRpS35", "PubChem SID": "SID104188343", "infection score, replicate 1": 0.77, "cell count, replicate 1": 5097}
{"gene knocked down": "CG15279", "PubChem SID": "SID104181727", "infection score, replicate 1": 13.5, "cell count, replicate 1": 6178}
{"gene knocked down": "CG15279", "PubChem SID": "SID104205891", "infection score, replicate 1": 24.1, "cell count, replicate 1": 6648}

In a second layout: entries from further up.
| gene knocked down | PubChem SID | infection score, replicate 1 | cell count, replicate 1 |
| --- | --- | --- | --- |
| nmd | SID104182648 | 2.07 | 7013 |
| nmd | SID104206529 | 3.2 | 6664 |
